# In-gel DMS probing of monomeric and dimeric HIV-1 RNA

The measurements come from Ye et al. 2022 (doi:10.1038/s41594-022-00746-2).

Sequence of the HIV-1 NL4-3 5' RNA, positions 1 to 437, as numbered in the source:
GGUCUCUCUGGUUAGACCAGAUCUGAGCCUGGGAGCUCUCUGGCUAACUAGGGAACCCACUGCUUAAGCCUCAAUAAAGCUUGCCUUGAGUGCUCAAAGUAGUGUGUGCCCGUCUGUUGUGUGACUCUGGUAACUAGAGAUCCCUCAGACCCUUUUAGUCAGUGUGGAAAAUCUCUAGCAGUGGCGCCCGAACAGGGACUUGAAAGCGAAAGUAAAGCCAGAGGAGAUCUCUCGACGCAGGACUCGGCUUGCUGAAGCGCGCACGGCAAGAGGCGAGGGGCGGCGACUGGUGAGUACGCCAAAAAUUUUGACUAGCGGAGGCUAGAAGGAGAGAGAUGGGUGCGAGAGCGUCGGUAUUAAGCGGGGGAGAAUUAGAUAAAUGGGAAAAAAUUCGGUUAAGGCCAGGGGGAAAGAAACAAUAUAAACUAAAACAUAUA

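Randomly mutated transcripts starting with one, two or three G (1G, 2G, 3G), capped or uncapped, were folded for 30 min at 37 °C. Monomer and dimer bands were cut from native gels after folding in high salt (300 mM KCl, 5 mM MgCl2) or low salt (40 mM KCl, 0.1 mM MgCl2). Gel slices were treated with 170 mM dimethyl sulfate for 15 min at 37 °C and read by mutational profiling against an ethanol control.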

Values are winsor-normalised DMS reactivities of A and C; higher means more reactive, usually unpaired. One numbering serves 1G, 2G and 3G. A position is written with its base.

| position | 2G capped high-salt monomer | 1G capped high-salt dimer |
|---|---|---|
| C29 | 0.09 | 0.12 |
| C38 | 0.03 | 0.04 |
| A46 | 0.03 | 0.09 |
| C57 | 0.03 | 0.50 |
| C60 | 0.36 | 0.10 |
| A67 | 0.75 | 0.52 |
| C70 | 0.03 | 0.04 |
| C72 | 0.08 | 0.19 |
| A77 | 0.83 | 0.74 |
| A101 | 0.17 | 0.16 |
| C109 | 0.20 | 0.23 |
| C110 | 0.20 | 0.19 |
| C111 | 0.32 | 0.25 |
| A124 | 1.07 | 0.93 |
| C143 | 0.03 | 0.04 |
| C144 | 0.03 | 0.04 |
| C146 | 0.12 | 0.12 |
| C175 | 0.03 | 0.04 |
| C188 | 0.06 | 0.09 |
| A192 | 0.81 | 0.73 |
| A203 | 0.50 | 0.53 |
| A209 | 0.45 | 0.43 |
| A210 | 0.57 | 0.51 |
| A216 | 0.57 | 0.70 |
| A225 | 0.82 | 0.82 |
| A227 | 0.26 | 0.22 |
| C231 | 0.14 | 0.12 |
| A239 | 0.61 | 0.77 |
| C248 | 0.05 | 0.04 |
| C258 | 0.35 | 0.22 |
| C262 | 0.42 | 0.22 |
| C264 | 0.42 | 0.19 |
| C267 | 0.16 | 0.07 |
| A269 | 0.48 | 0.26 |
| C274 | 0.60 | 0.24 |
| A276 | 0.96 | 0.38 |
| C281 | 0.41 | 0.46 |
| C284 | 0.22 | 0.16 |
| C287 | 0.33 | 0.41 |
| C299 | 0.08 | 0.07 |
| A301 | 0.26 | 0.26 |
| C312 | 0.11 | 0.08 |
| A319 | 0.87 | 0.96 |
| C322 | 0.03 | 0.04 |
| A330 | 0.96 | 0.83 |
| A334 | 0.48 | 0.45 |
| A360 | 0.54 | 0.62 |
| A371 | 0.97 | 0.94 |
| A376 | 0.76 | 0.78 |
| A385 | 0.56 | 0.54 |
| A387 | 0.24 | 0.24 |
| A398 | 0.17 | 0.29 |
| C403 | 0.03 | 0.04 |
| A414 | 0.48 | 0.53 |
| A415 | 0.22 | 0.25 |
| A421 | 0.38 | 0.38 |
| A428 | 0.11 | 0.10 |
| A431 | 0.61 | 0.65 |
| A435 | 0.51 | 0.53 |

Excerpt, the final 5 entries:

| position | 2G capped high-salt monomer | 1G capped high-salt dimer |
|---|---|---|
| A415 | 0.22 | 0.25 |
| A421 | 0.38 | 0.38 |
| A428 | 0.11 | 0.10 |
| A431 | 0.61 | 0.65 |
| A435 | 0.51 | 0.53 |